From ChEMBL document CHEMBL3988442, “University of Dundee, Small-Polar-MMV Screening Library” (2021).

Mtb glucose medium: 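Growth of Mycobacterium tuberculosis over 3 days (7H9 medium with glucose and tyloxapol); the read-out is not stated. Concentration: 500 µM. The record gives no direction; compounds that gave an IC50 in retests scored well above the rest, so higher reads as more growth inhibition. About 18,000 compounds were tested under these conditions; 7.9% (about 1,400) showed 50% or more at least once.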
Mtb cholesterol medium: 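Growth of Mycobacterium tuberculosis over 4 days (cholesterol / DPPC medium with tyloxapol); the read-out is not stated. Compounds at 500 µM. Direction is inferred from retests: higher values go with more growth inhibition. Size under these conditions: about 18,000 compounds, about 900 of them at 50% or above in at least one test.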

Values are the deposited “Percent Effect”, in %. The controls that fix the scale are not given in the record; negative values are as filed. Many other results are left out here, so strong results are more common than in the screen. A dash means the value is not listed here; it may have been measured.

structure,Mtb glucose medium,Mtb cholesterol medium
CC(C)(C)C(=O)NCCC(=O)NC1CCS(=O)(=O)C1 (centres unmarked),1.36,-
Cc1cccc(NC(=O)NCCCn2cccn2)n1,30.39,-
NCCNS(=O)(=O)c1ccc(F)c(C(F)(F)F)c1,79.86,45.71
COC(=O)Nc1ccc(S(=O)(=O)NC2CCNC2)cc1 (centres unmarked),16.91,-
CCCNC(=O)Nc1ccccn1,-,10.56
O=C(C1CC1)N1CCCC(CN2CCOCC2)CC1 (centres unmarked),8.394,-
COC(C)(C)CNc1ccc(OC(F)F)cn1,31.47,19.07
CCOC(=O)C(C)Nc1ccc2oc(=O)[nH]c2c1 (centres unmarked),-,50.74
CC(C)N1CCOC(Cn2cc(Br)cn2)C1 (centres unmarked),21,-
CCCC(C#N)NC(=O)c1ccn(-c2ccccc2)n1 (centres unmarked),71.2,89.54
CCOc1ccc(NC(=O)N2CCC(N)C2)cc1C#N (centres unmarked),39.6,-
CCn1ncnc1C(C)NC(=O)c1cccc(O)c1C (centres unmarked),8.597,-
O=c1c2ccccc2ncn1CCc1ccccn1,22.61,-
CCc1ccc(CN2CCCCC2C(=O)NC)nc1 (centres unmarked),11.4,-
CC1CNCCN1c1cccc2cnccc12 (centres unmarked),44.88,-
OCC(Nc1ncccc1Br)c1ccccc1 (centres unmarked),67.84,61.42
COCCC(C)(C)CN,0.3865,-
CN(C)c1ccc(CNC(=O)C2CCCO2)cc1 (centres unmarked),50.31,55.07
O=C(c1cnsn1)N1CC=C(c2ccccc2)CC1,89.68,100.4
CN(CCn1cccn1)CC(=O)Nc1ccc(Br)cn1,45.99,32
NS(=O)(=O)NC(c1cc(F)ccc1F)C1CC1 (centres unmarked),11.53,-
CCCn1c(SCC(N)=O)nnc1C1CC1,1.877,-
CC(=O)NCCCNCc1ccc(Br)c2cccnc12,53.68,-
CCCNc1nc2c(c(=O)n(C)c(=O)n2C)n1CC,-,4.706
c1ccc(CCNC2CC2)nc1,13.46,-
Cc1n[nH]cc1CNCCNc1ncc(Cl)cc1Cl,54.98,28.29
C1CC(N2CCN(CC3CC3)CC2)CCN1,-25.69,-
CCC1CCCCN1C(=O)CN(CC(N)=O)C(C)C (centres unmarked),4.032,-
CS(=O)(=O)Cc1ccccc1NCc1ccsc1,64.2,67.35
NCc1ccc(N2CCNCC2)cc1,3.613,-
CCNC(=O)[C@H]1Cc2ccccc2CN1,-,18.69
CCc1cc2c(=O)n(CCN3CCNCC3)cnc2s1,-,10.79
O=C1COC[C@H]2CNCC[C@H]2N1Cc1ccccc1,-,21.96
COCCSCc1cccc(NC(=O)C(C)N)c1 (centres unmarked),52.87,-
CC(=O)Nc1ccc(CNC(C)C(C)C)cc1 (centres unmarked),5.682,-
CC(C)c1cc(C(=O)N2CCSCC2)nc2ncnn12,-11.31,-
Cc1cnc(C(=O)Nc2ncccc2O)cn1,9.367,-1.897
Cc1cc(NC(=O)c2cccc(N(C)C)c2)c[nH]c1=O,-7.184,-
N#CC1(C(=O)NCc2ccccc2F)CC1,-,61.86
CC[C@@H](O)CN1CCC(OC2CCOC2)CC1 (some centres unmarked),-4.255,-
CCOCCc1nnc(N)s1,-,0.007434
NC[C@]12C[C@H]1CCN2Cc1ccccc1,48.28,52.87
CSCCC(=O)NCc1ccccc1F,37.26,-
COc1ccccc1CC#N,1.219,-
Cc1ccc(S(=O)(=O)N2CCOCC2)c2cccnc12,0.5797,-
O=C(NCCCNCc1cccnc1)c1ccsc1,-,13.3

The last 4 entries again:

CSCCC(=O)NCc1ccccc1F read Mtb glucose medium: 37.26%.
COc1ccccc1CC#N read Mtb glucose medium: 1.219%.
Cc1ccc(S(=O)(=O)N2CCOCC2)c2cccnc12 read Mtb glucose medium: 0.5797%.
O=C(NCCCNCc1cccnc1)c1ccsc1 read Mtb cholesterol medium: 13.3%.